Pooled drug test results. Numbers come from NIAID ChemDB, via PubChem.

Shared fields: growth or infection tests; agent: Candida albicans; read-out: MIC50

Two numbers with a dash give a range or band.

SMILES	setting	method	strain	result
CCC(C)CC(C)CCCCCCCCC(=O)N[C@H]1C[C@@H](O)[C@H](NCCN)NC(=O)[C@@H]2[C@@H](O)CCN2C(=O)[C@H]([C@H](O)CCN)NC(=O)[C@H]([C@H](O)[C@@H](O)c2ccc(O)cc2)NC(=O)[C@@H]2C[C@@H](O)CN2C(=O)[C@H]([C@@H](C)O)NC1=O			50 isolates	0.2 µg/mL
Clc1ccc(C(Cn2ccnc2)OCc2csc3c(Cl)cccc23)c(Cl)c1	24 h	visual reading	63 isolates	0.5 µg/mL
C=C(C)CN=C(N)NCCCCCCCN1CCCCCCCCN=C(N)NC1=O			ATCC 60193	20 µM
Nc1ncccc1-c1cc(Cc2ccc(COc3ccccn3)cc2)no1		broth dilution		0.015 µg/mL
CN(C)c1ccc2[nH]c3cc4c(=O)[nH]n(-c5ccccc5)c(=O)c4cc3c2c1		agar	Clinical isolates	512 µg/mL
CCOC(=O)c1ccccc1S(=O)(=O)NC(=O)Nc1nc(Br)cc(OC)n1		broth dilution		1 µM
CCC(C)CC(C)CCCCCCCCC(=O)N[C@H]1C[C@@H](O)[C@H](NCCN)NC(=O)[C@@H]2[C@@H](O)CCN2C(=O)[C@H]([C@H](O)CCN)NC(=O)[C@H]([C@H](O)[C@@H](O)c2ccc(O)cc2)NC(=O)[C@@H]2C[C@@H](O)CN2C(=O)[C@H]([C@@H](C)O)NC1=O		broth dilution		1 µg/mL
O=c1[nH]n(-c2ccccc2)c(=O)c2cc3c(cc12)[nH]c1ccccc13		agar	Clinical isolates	16–32 µg/mL
C=CCSS(=O)CC=C		broth dilution	Clinical Isolate 3055	0.39 µg/mL
C#CCNC(N)=NCCCCCCCN1CCCCCCCCN=C(N)NC1=O			15T	2.5 µM
C[C@@H](c1ncncc1F)[C@](O)(Cn1cncn1)c1ccc(F)cc1F		broth dilution		0.015 µg/mL
C=CC[C@@H]1/C=C(/C)C[C@H](C)C[C@H](OC)[C@H]2O[C@@](O)(C(=O)C(=O)N3CCCC[C@H]3C(=O)O[C@H](/C(C)=C/[C@@H]3CC[C@@H](O)[C@H](OC)C3)[C@H](C)[C@@H](O)CC1=O)[C@H](C)C[C@@H]2OC		broth dilution / turbidity	SC5314	>16 µg/mL
Nc1ncccc1-c1cc(Cc2ccc(COc3ccccn3)cc2)no1		broth dilution	IFM49971	0.008 µg/mL
NC(=NCc1ccccc1)NCCCCCCCN1CCCCCCCCN=C(N)NC1=O			15T	5 µM
CCN(CC)CCCC(C)Nc1c2ccc(Cl)cc2nc2ccc(OC)cc12	biofilm	broth dilution	SC5314	256 µg/mL
COc1ccc(-c2c3c(N)c4c(nc3nc3c2c(C)nn3-c2ccccc2)CCCC4)cc1		broth dilution / absorbance	ATCC 10231	125 µg/mL
COc1cc(/C=C2\SC(=S)NC2=O)cc(OC)c1OCC(O)(Cn1cncn1)c1ccc(F)cc1F		broth dilution	ATCC 24433	16 µg/mL
CC(=O)N1CCN(c2ccc(OC[C@H]3CO[C@](Cn4ccnc4)(c4ccc(Cl)cc4Cl)O3)cc2)CC1			40 isolates azole-susceptible	0.01 µg/mL
O=C(O)c1cc2[nH]c3cc4c(=O)[nH]n(-c5ccccc5)c(=O)c4cc3c2cc1C(=O)O		agar	Clinical isolates	256 µg/mL
CC(C)=CCN=C(N)NCCCCCCCN1CCCCCCCCN=C(N)NC1=O			53T	20 µM
CCCCCCCCCCCCCCCC(=O)NC1CCC(O)NC(=O)C2C(O)C(C)CN2C(=O)C(C(O)CC(N)=O)NC(=O)C(C(O)Cc2ccc(O)c(OS(=O)(=O)O)c2)NC(=O)C2CC(O)CN2C(=O)C(C(C)O)NC1=O			FP578	0.008 µg/mL
C=CCSS(=O)CC=C		broth dilution	ATCC 10231	250 µg/mL
Cc1cc2[nH]c3cc4c(=O)[nH]n(-c5ccccc5)c(=O)c4cc3c2cc1C		agar	Clinical isolates	32 µg/mL
CC(=O)OCC1C=C(c2cccc(Cl)c2)C(=O)O1			25 isolates	2 µg/mL
Cc1ccc(-c2c3c(N)c4c(nc3nc3c2c(C)nn3-c2ccccc2)CCC4)cc1		broth dilution / absorbance	CCC 129	62.5 µg/mL
C[C@H]1[C@H](O)[C@@H](C)/C=C/C=C/C=C/C=C/C=C/C=C/C=C/[C@H](O[C@@H]2O[C@H](C)[C@@H](O)[C@H](N)[C@@H]2O)C[C@@H]2O[C@](O)(C[C@@H](O)C[C@@H](O)CC[C@H](O)[C@@H](O)C[C@@H](O)CC(=O)O[C@H]1C)C[C@H](O)[C@H]2C(=O)O			16 isolates fluconazole-susceptible	0.125 µg/mL
O=C(O)O		broth dilution	ATCC 90028	80 µg/mL
C/C=C/CN=C(N)NCCCCCCCN1CCCCCCCCN=C(N)NC1=O			4T	1.25 µM
CCCCCCCCCCCCCCCC(=O)N[C@H]1C[C@@H](O)[C@@H](O)NC(=O)[C@@H]2[C@@H](O)[C@@H](C)CN2C(=O)[C@H]([C@@H](C)O)NC(=O)[C@H]([C@H](O)[C@@H](O)c2ccc(O)cc2)NC(=O)[C@@H]2C[C@@H](O)CN2C(=O)[C@H]([C@@H](C)O)NC1=O			FP633	0.06 µg/mL
OC(Cn1cncn1)(Cn1cncn1)c1ccc(F)cc1F	48 h		Isolate HR-Micro	1.56 µg/mL
Cc1ccc(-c2c3c(N)c4c(nc3nc3c2c(C)nn3-c2ccccc2)CCCCC4)cc1		broth dilution / absorbance	CCC 130	31.2 µg/mL

For reference, 2 entries again:

SMILES,setting,method,strain,result
COc1ccc(-c2c3c(N)c4c(nc3nc3c2c(C)nn3-c2ccccc2)CCCC4)cc1,,broth dilution / absorbance,ATCC 10231,125 µg/mL
Cc1ccc(-c2c3c(N)c4c(nc3nc3c2c(C)nn3-c2ccccc2)CCC4)cc1,,broth dilution / absorbance,CCC 129,62.5 µg/mL

An empty or dashed field is not shown. MIC50, MIC90 and the like: level of inhibition, or share of isolates inhibited. Neighbouring rows are from separate reports.